Laboratory results: US20070081573A1, “Process for inhibiting biofilm formation on and/or removing biofilm from an enhanced tube” (Ashland Licensing and Intellectual Property LLC, priority 2005, published 2007)

System: pseudomonas aerigenosa (ATCC 27853) biofilm
Experiment: Biofouling test on enhanced tube and smooth tube in laboratory scale cooling tower system (modified P-U-L-S-E fouling monitor)
Format: cell-based

chlorine
fouling factors on both tubes (chlorine slugged over 4 hour period/day to ORP +450 mV from 13th day, after 12 days of Dispersant A 150 ppm daily): dropped
reduction of biofilm deposits (summary of test results) (used alone, smooth tubes and enhanced tubes): not effective alone
